## Genome-wide point mutation profile of HIV-1: integrase

Protein: integrase of HIV-1 NL4-3, numbered from its first residue. The source prints no sequence; the chain below is taken from UniProt P12497, a closely related isolate, and fits the source at the 252 positions it covers.
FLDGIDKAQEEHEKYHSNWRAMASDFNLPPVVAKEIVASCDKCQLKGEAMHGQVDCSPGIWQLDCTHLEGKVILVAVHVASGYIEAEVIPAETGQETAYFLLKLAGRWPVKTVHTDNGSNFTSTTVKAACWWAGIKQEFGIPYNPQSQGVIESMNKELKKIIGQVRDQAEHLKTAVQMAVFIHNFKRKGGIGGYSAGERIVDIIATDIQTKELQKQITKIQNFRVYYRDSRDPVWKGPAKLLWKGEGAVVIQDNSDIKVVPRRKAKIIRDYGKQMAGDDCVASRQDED
Effects on overlapping genes or RNA elements are not listed.

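Seven fragments of pNL4-3 were mutated by error-prone PCR, and each virus pool was passaged in CEM T cells. Sequencing gave the RC index: frequency after two rounds over frequency in the input plasmid.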

RC index: lower means poorer replication; rough cut-offs are 0.1 (lethal) and 0.2 (tolerated).
Each entry names the wild-type residue, its position and the residue put in its place.
Input reads are the counts in the plasmid library.
The authors read an index above 1 as above wild type (1.9% of all changes in the genome).

change,base,input reads,RC index
L2I,T4233A,318,0.0496
G4V,G4240T,291,0.101
E10G,A4258G,248,0.109
E11K,G4260A,187,0.868
E11G,A4261G,378,0.0596
E13K,G4266A,255,0.875
Y15C,A4273G,255,0.0442
H16L,A4276T,489,0.0876
W19R,T4284C,439,0.0873
N27D,A4308G,188,0.144
N27I,A4309T,493,0.0457
L28I,C4311A,679,0.0465
P30T,C4317A,140,0.129
P30S,C4317T,523,0.0991
V37L,G4338T,290,0.0622
A38V,C4342T,666,0.139
S39N,G4345A,696,0.155
K42N,A4355C,145,0.0466
K42N,A4355T,370,0.0244
C43G,T4356G,57,0.158
Q44E,C4359G,82,0.0550
Q44L,A4360T,876,0.0342
G52V,G4384T,160,0.137
D55N,G4392A,248,0.845
C56R,T4395C,369,0.0866
S57I,G4399T,372,0.0912
I60L,A4407C,53,0.0377
I60V,A4407G,362,0.0221
I60K,T4408A,264,0.0303
I60T,T4408C,135,0.118
T66K,C4426A,91,0.132
H67Y,C4428T,481,0.170
L68I,T4431A,255,0.125
V72A,T4444C,270,0.0666
V77I,G4458A,402,0.0695
V77F,G4458T,194,0.0720
S81G,A4470G,443,0.0406
E85V,A4483T,273,0.0219
P90L,C4498T,157,0.509
F100I,T4527A,306,0.0646
F100L,C4529A,178,0.0889
L102V,T4533G,58,0.102
L104S,T4540C,187,0.116
W108C,G4553T,102,0.0970
K111E,A4560G,371,0.0426
K111I,A4561T,361,0.0548
T122I,C4594T,371,0.192
S123R,A4596C,42,0.0471
S123T,G4597C,154,0.116
C130F,G4618T,32,0.309
W132C,G4625C,53,0.0373
A133S,G4626T,108,0.0733
K136R,A4636G,560,0.0353
Q137L,A4639T,536,0.0332
E138K,G4641A,203,0.604
E138G,A4642G,330,0.0300
F139L,T4646A,377,0.0367
M154T,T4690C,250,0.0714
L158S,T4702C,209,0.0683
K160I,A4708T,165,0.0541
V165A,T4723C,227,0.126
V176I,G4755A,872,0.0942
M178T,T4762C,303,0.0471
A179G,C4765G,84,0.0850
F185L,T4782C,545,0.0592
K186R,A4786G,400,0.0448
K186I,A4786T,670,0.0428
I191F,A4800T,263,0.0341
I191N,T4801A,153,0.0235
A196G,C4816G,157,0.0115
I204V,A4839G,226,0.0159
D207N,G4848A,285,0.152
D207G,A4849G,264,0.0682
Q209P,A4855C,119,0.0908
L213I,T4866A,350,0.0463
K215I,A4873T,267,0.0270
V225A,T4903C,238,0.0757
Y226N,T4905A,131,0.0138
D229E,C4916A,69,0.131
W235R,T4932C,463,0.0776
P238L,C4942T,256,0.105
K240M,A4948T,262,0.0514
L241F,C4950T,368,0.0793
E246G,A4966G,405,0.105
A248P,G4971C,112,0.0801
N254I,A4990T,356,0.0441
K258Q,A5001C,86,0.0261
V259A,T5005C,177,0.101
P261Q,C5011A,88,0.255
R269K,G5035A,185,0.364

Extract of 4 entries:

change,base,input reads,RC index
I60L,A4407C,53,0.0377
Y226N,T4905A,131,0.0138
S81G,A4470G,443,0.0406
V77I,G4458A,402,0.0695

Nucleotide positions follow pNL4-3.
Clones carried about five changes per kilobase, which can drag down the index of neutral changes.

Source: Al-Mawsawi et al. 2014 (doi:10.1186/s12977-014-0124-6), supplementary data.